Results deposited as PubChem BioAssay AID1224833 (University of Georgia, 2016).

- Purpose: 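Host factors restraining rotavirus as candidate antiviral genes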 (primary screen)
- System: monkey MA104 kidney cells
- Knock-down reagent: siRNA pool against human genes, 50 nM
- Timing: 48 h knock-down before infection; read 24 h after infection
- Challenge: infection with rotavirus strain RV3 two days after transfection; infectious dose for this stage not given
- Detection: 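z-score of rotavirus antigen signal per well, from a fluorescent immunoassay, relative to non-targeting control wells on the same plate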
- Direction: z-score vs non-targeting control: higher = more rotavirus replication than with non-targeting control
- Call rule: In these data the active calls have z-score vs non-targeting control at about -1 or lower, or at about 1 or higher
- Meaning of the calls: active = z-score beyond 1 either way; inactive = z-score within 1 of zero
This is one part, drawn at random, of about 12,000 deposited reagents. About 5,600 of all reagents (46%) were called active. 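Active calls cover z-scores past 1 in both directions, so they include lowered as well as raised rotavirus replication.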

With knock-down of SMARCA5 the results were z-score vs non-targeting control -0.641; inactive.
Silencing of RWDD2B came out at: z-score vs non-targeting control 0.598; inactive.
Against DGLUCY the deposit lists z-score vs non-targeting control 0.284; inactive.
For B3GLCT, the entry reads z-score vs non-targeting control -0.392; inactive.
Knock-down of SARM1 resulted in: z-score vs non-targeting control -1.53; active.
After knock-down of PUS1 the results were z-score vs non-targeting control -0.724; inactive.
LCAT gave z-score vs non-targeting control -0.747; inactive.
CD19 gave z-score vs non-targeting control -0.606; inactive.
After knock-down of RCN2 the results were z-score vs non-targeting control -1.36; active.
Silencing of GBF1 came out at: z-score vs non-targeting control -1.01; active.
Against PRSS16, the values are z-score vs non-targeting control 0.531; inactive.
Silencing of CRB1 came out at: z-score vs non-targeting control -1.05; active.
OR4C3 gave z-score vs non-targeting control 0.293; inactive.
With knock-down of LY6G6D, the record shows z-score vs non-targeting control -0.0703; inactive.
Depletion of HSPE1 resulted in: z-score vs non-targeting control -1.09; active.
Silencing of ZFYVE21 gave: z-score vs non-targeting control 1.13; active.
Against BYSL the deposit lists z-score vs non-targeting control 1.6; active.
Knock-down of CYP11B1 resulted in: z-score vs non-targeting control -1.67; active.
Depletion of ABCA2 gave: z-score vs non-targeting control -0.942; inactive.
